The list shows a part of the results, in another mix than the full data. The source made the active and inactive calls. Rule as the data show it: active = normalized activity above about 1.9%; inactive = the rest.

Amino acid sequences for entries named in this document (tags omitted).
UniProt Q969H0, whole entry, looked up: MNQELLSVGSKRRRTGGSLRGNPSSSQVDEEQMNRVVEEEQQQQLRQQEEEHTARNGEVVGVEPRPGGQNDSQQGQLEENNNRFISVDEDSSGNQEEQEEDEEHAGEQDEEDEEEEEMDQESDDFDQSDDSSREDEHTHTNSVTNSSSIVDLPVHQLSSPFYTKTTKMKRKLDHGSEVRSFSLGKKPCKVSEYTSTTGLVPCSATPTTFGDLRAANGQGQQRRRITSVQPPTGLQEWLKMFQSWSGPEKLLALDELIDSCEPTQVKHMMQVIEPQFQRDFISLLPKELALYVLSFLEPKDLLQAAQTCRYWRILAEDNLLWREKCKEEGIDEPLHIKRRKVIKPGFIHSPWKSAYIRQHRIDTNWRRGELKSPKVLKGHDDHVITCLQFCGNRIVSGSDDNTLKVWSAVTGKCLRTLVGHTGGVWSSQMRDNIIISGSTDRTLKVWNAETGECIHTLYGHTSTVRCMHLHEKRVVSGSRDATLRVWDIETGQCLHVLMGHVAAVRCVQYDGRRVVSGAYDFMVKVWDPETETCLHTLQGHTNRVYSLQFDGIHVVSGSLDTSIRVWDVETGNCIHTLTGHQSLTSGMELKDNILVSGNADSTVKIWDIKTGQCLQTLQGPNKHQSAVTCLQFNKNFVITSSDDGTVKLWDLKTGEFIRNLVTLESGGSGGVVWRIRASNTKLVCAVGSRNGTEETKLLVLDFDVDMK

For the assay, the target named is F-box/WD repeat-containing protein 7 (Homo sapiens) (UniProt Q969H0). Kind of assay: FBW7 E3 ligase activators, primary screen, biochemical, AlphaScreen, human (AID 1259310).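 Also: purified mutant Fbw7 with reduced substrate affinity.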 The following applies: AlphaScreen FBW7–phospho-cyclin E peptide binding, activator screen; at 26.1 µM; active compounds read high.
In the case of `O=C(O)Cc1ccc(N(CCCl)CCCl)cc1`, the normalized activity (activation) is inactive: -0.43%.

These data come from PubChem BioAssay AID1259310 (The Scripps Research Institute Molecular Screening Center, 2017).
